According to patent publication US20160264649A1:

How the values were obtained:
Assay in all cases: cell-based or functional assay
[1] = molecular target: HIV-1 Env of the clade AG viruses (n=10) of the cross-clade 162-pseudovirus panel
[2] = molecular target: HIV-1 Env of the 162-pseudovirus panel representing all major circulating HIV-1 subtypes (HIV-1)
[3] = molecular target: HIV-1 Env of the clade B viruses (n=31) of the cross-clade 162-pseudovirus panel
[4] = molecular target: HIV-1 Env of the clade G pseudoviruses of the cross-clade 162-pseudovirus panel (n = 15)
[5] = molecular target: HIV-1 Env of the clade F viruses (n=15) of the cross-clade 162-pseudovirus panel
[6] = molecular target: HIV-1 Env of the clade AE pseudoviruses of the cross-clade 162-pseudovirus panel (n = 10)
[7] = molecular target: HIV-1 Env of the clade AE viruses (n=10) of the cross-clade 162-pseudovirus panel
[8] = molecular target: HIV-1 Env of the clade A viruses (n=26) of the cross-clade 162-pseudovirus panel
[9] = molecular target: HIV-1 Env of the clade D viruses (n=25) of the cross-clade 162-pseudovirus panel
[10] = molecular target: HIV-1 Env of the clade G viruses (n=15) of the cross-clade 162-pseudovirus panel
[11] = molecular target: HIV-1 Env of the clade C viruses (n=27) of the cross-clade 162-pseudovirus panel
[12] = molecular target: HIV-1 Env of all pseudoviruses of the cross-clade 162-pseudovirus panel (n = 162)
[13] = molecular target: HIV-1 Env of the clade D pseudoviruses of the cross-clade 162-pseudovirus panel (n = 25)
[14] = molecular target: HIV-1 Env of the clade F pseudoviruses of the cross-clade 162-pseudovirus panel (n = 15)
[15] = molecular target: HIV-1 Env of the clade AG pseudoviruses of the cross-clade 162-pseudovirus panel (n = 10)
[16] = molecular target: HIV-1 Env of all viruses (n=162) of the cross-clade 162-pseudovirus panel
[17] = molecular target: HIV-1 Env of the clade C pseudoviruses of the cross-clade 162-pseudovirus panel (n = 27)

Row | Binder | Median IC50 (µg/ml) against viruses neutralized with an IC50 <50 µg/ml [1] [µg/mL] | Percent viruses neutralized with an IC50 <50 µg/ml [1] [%] | Median IC50 (µg/ml) against viruses neutralized with an IC50 <50 µg/ml [2] [µg/mL] | Percent viruses neutralized, IC50 < 0.1 µg/ml [2] [%] | Percent viruses neutralized, IC50 < 1 µg/ml [2] [%] | Percent viruses neutralized, IC50 < 50 µg/ml [2] [%] | Median IC50 (µg/ml) against all viruses [3] [µg/mL] | Median IC50 (µg/ml) against viruses neutralized with an IC50 <50 µg/ml [3] [µg/mL] | Percent viruses neutralized with an IC50 <50 µg/ml [3] [%] | Median IC50 (µg/ml) against all viruses [4] [µg/mL] | Median IC50 (µg/ml) against all viruses [5] [µg/mL] | Median IC50 (µg/ml) against viruses neutralized with an IC50 <50 µg/ml [5] [µg/mL] | Percent viruses neutralized with an IC50 <50 µg/ml [5] [%] | Median IC50 (µg/ml) against all viruses [6] [µg/mL] | Percent viruses neutralized with an IC50 <50 µg/ml [7] [%] | Median IC50 (µg/ml) against all viruses [8] [µg/mL] | Median IC50 (µg/ml) against viruses neutralized with an IC50 <50 µg/ml [8] [µg/mL] | Percent viruses neutralized with an IC50 <50 µg/ml [8] [%] | Median IC50 (µg/ml) against all viruses [9] [µg/mL] | Median IC50 (µg/ml) against viruses neutralized with an IC50 <50 µg/ml [9] [µg/mL] | other results
1 | 5345_I01 (PGT-137) (antibody, V domains shown) VH: EVHLEESGPGLVRPSETLSLTCTASGGSIRGGEWGDSDYHWGWVRHSPEKGLEWIGSIHWRGTTHYNAPFRGRGRLSIDLSRNQFSLRLTSVTAEDTAVYYCVKHKYHDIVMVVPIAGWFDPWGQGLQVTVSS VL: EIMMTQSPAILSVSPGDRATLSCRASQSVKNNLAWYQKRPGQAPRLLIFDTSSRASGIPARFSGGGSGTEFTLTVNSMQSEDFATYYCQQYEEWPRTFGQGTKVEIK | 28.3 | 10 | 3.46 | 4 | 8 | 22 | 50 | 8.55 | 19 | > 50 | 50 | 6.23 | 20 | > 50 | 0 | 50 | 0.72 | 23 | 50 | 6.3 | Percent viruses neutralized with an IC50 <50 µg/ml [9]: 12%; Median IC50 (µg/ml) against viruses neutralized with an IC50 <50 µg/ml [10]: 0.23 µg/mL; Percent viruses neutralized with an IC50 <50 µg/ml [10]: 33%; Median IC50 (µg/ml) against all viruses [11]: 50 µg/mL; Median IC50 (µg/ml) against viruses neutralized with an IC50 <50 µg/ml [11]: 0.23 µg/mL; Percent viruses neutralized with an IC50 <50 µg/ml [11]: 33%; Median IC50 (µg/ml) against all viruses [12]: > 50 µg/mL; Median IC50 (µg/ml) against all viruses [13]: > 50 µg/mL; Median IC50 (µg/ml) against all viruses [14]: > 50 µg/mL; Median IC50 (µg/ml) against all viruses [15]: > 50 µg/mL; Median IC50 (µg/ml) against viruses neutralized with an IC50 <50 µg/ml [16]: 3.48 µg/mL; Percent viruses neutralized with an IC50 <50 µg/ml [16]: 22%
2 | 4993_K13 (PGT-141) (antibody, V domains shown) VH: QVQLVQSGPEVKKPGSSVKVSCKASGNTFSKYDVHWVRQATGQGLEWVGWMSHEGDKTESAQRFKGRVTFTRDTSASTAYMELRGLTSDDTAIYYCTRGSKHRLRDYVLYDDYGLINYQEWNDYLEFLDVWGHGTAVTVSS VL: DTVVTQSPLSLPVTPGEAASMSCSSTQSLRHSNGANYLAWYQHKPGQSPRLLIRLGSQRASGVPDRFSGSGSGTHFTLKISRVEAEDAAIYYCMQGLNRPWTFGKGTKLEIK | 0.5 | 50 | 0.35 | 15 | 36 | 56 | 33.2 | 0.48 | 52 | > 50 | 1.15 | 0.24 | 67 | > 50 | 40 | 1.92 | 0.22 | 66 | 50 | 0.37 | Median IC50 (µg/ml) against all viruses [17]: > 50 µg/mL; Median IC50 (µg/ml) against viruses neutralized with an IC50 <50 µg/ml [7]: 0.01 µg/mL; Percent viruses neutralized with an IC50 <50 µg/ml [9]: 28%; Median IC50 (µg/ml) against viruses neutralized with an IC50 <50 µg/ml [10]: 0.3 µg/mL; Percent viruses neutralized with an IC50 <50 µg/ml [10]: 67%; Median IC50 (µg/ml) against all viruses [11]: 3.28 µg/mL; Median IC50 (µg/ml) against viruses neutralized with an IC50 <50 µg/ml [11]: 0.33 µg/mL; Percent viruses neutralized with an IC50 <50 µg/ml [11]: 70%; Median IC50 (µg/ml) against all viruses [12]: > 50 µg/mL; Median IC50 (µg/ml) against all viruses [13]: > 50 µg/mL; Median IC50 (µg/ml) against all viruses [14]: > 50 µg/mL; Median IC50 (µg/ml) against all viruses [15]: > 50 µg/mL; Median IC50 (µg/ml) against viruses neutralized with an IC50 <50 µg/ml [16]: 0.35 µg/mL; Percent viruses neutralized with an IC50 <50 µg/ml [16]: 56%
3 | 4995_E20 (PGT-142) (antibody, V domains shown) VH: QVQLVQSGPEVKKPGSSVKVSCKASGNTFSKYDVHWVRQATGQGLEWVGWISHERDKTESAQRFKGRVTFTRDTSATTAYMELRGLTSDDTAIYYCTRGSKHRLRDYVLYDDYGLINYQEWNDYLEFLDVWGHGTAVTVSS VL: DTVVTQSPLSLPVTPGEAASMSCSSTQSLRHSNGANYLAWYQHKPGQSPRLLIRLGSQRASGVPDRFSGSGSGTHFTLKISRVEAEDAAIYYCMQGLNRPWTFGKGTKLEIK | 2.16 | 60 | 0.21 | 23 | 40 | 57 | 15.2 | 0.4 | 52 | > 50 | 0.82 | 0.22 | 67 | > 50 | 40 | 2.21 | 0.25 | 69 | 50 | 0.19 | Median IC50 (µg/ml) against all viruses [17]: 43.1 µg/mL; Median IC50 (µg/ml) against viruses neutralized with an IC50 <50 µg/ml [7]: 0.01 µg/mL; Percent viruses neutralized with an IC50 <50 µg/ml [9]: 28%; Median IC50 (µg/ml) against viruses neutralized with an IC50 <50 µg/ml [10]: 0.21 µg/mL; Percent viruses neutralized with an IC50 <50 µg/ml [10]: 67%; Median IC50 (µg/ml) against all viruses [11]: 0.79 µg/mL; Median IC50 (µg/ml) against viruses neutralized with an IC50 <50 µg/ml [11]: 0.09 µg/mL; Percent viruses neutralized with an IC50 <50 µg/ml [11]: 70%; Median IC50 (µg/ml) against all viruses [12]: > 50 µg/mL; Median IC50 (µg/ml) against all viruses [13]: > 50 µg/mL; Median IC50 (µg/ml) against all viruses [14]: 34.5 µg/mL; Median IC50 (µg/ml) against all viruses [15]: > 50 µg/mL; Median IC50 (µg/ml) against viruses neutralized with an IC50 <50 µg/ml [16]: 0.21 µg/mL; Percent viruses neutralized with an IC50 <50 µg/ml [16]: 57%
